In patent USRE37781E1, “Substituted cyclic carbonyls and derivatives thereof useful as retroviral protease inhibitors” (DuPont Pharmaceuticals Company, priority 1991, dated 2002):
pKi: −log10 of the molar value. Read-outs that look alike come from different tables or passages of the source.

Columns and labels:
[1] = target: single-chain tethered dimer of HIV protease (Human immunodeficiency virus 1, UniProt P04585)
[2] = read-out: HPLC K1, Table 2d, class symbols
[3] = read-out: HPLC K1, Table 2d, HIV protease inhibition, HPLC method

SMILES	IC90 (HIV-1 (RF) in MT-2 cells; Table 2d, class symbols)	pKi [1, 2]	IC90 (HIV-1 (RF) in MT-2 cells; Table 2d, HIV RNA assay)	pKi [1, 3]	also measured
NC(=O)NN=Cc1cccc(CN2C(=O)N(Cc3cccc(C=NNC(N)=O)c3)[C@H](Cc3ccccc3)[C@H](O)[C@@H](O)[C@H]2Cc2ccccc2)c1	+++ (+++=<10 μg/mL)	> 8.00			
CNS(=O)(=O)OCCCCCCN1C(=O)N(CCCCCCO)[C@H](Cc2ccccc2)[C@H](O)[C@@H](O)[C@H]1Cc1ccccc1	+++ (+++=<10 μg/mL)	6.00 to 8.00			
Nc1nc(-c2cccc(CN3C(=O)N(CC4CC4)[C@H](Cc4ccccc4)[C@H](O)[C@@H](O)[C@H]3Cc3ccccc3)c2)cs1			+++ (+++=<10 μg/mL)	> 8.00	
O=C1N(Cc2ccc(CO)cc2)[C@H](Cc2ccccc2)[C@H](O)[C@@H](O)[C@@H](Cc2ccccc2)N1Cc1ccc2[nH]nnc2c1			+++ (+++=<10 μg/mL)	> 8.00	
NNC(=O)c1cccc(CN2C(=O)N(CC3CC3)[C@H](Cc3ccccc3)[C@H](O)[C@@H](O)[C@H]2Cc2ccccc2)c1			+++ (+++=<10 μg/mL)	> 8.00	
CC(O)CCCCN1C(=O)N(Cc2ccc3ccccc3c2)[C@H](Cc2ccccc2)[C@H](O)[C@@H](O)[C@H]1Cc1ccccc1 (stereo partly shown)	+++ (+++=<10 μg/mL)	> 8.00			
O=C1N[C@H](Cc2ccccc2)[C@H](O)[C@@H](O)[C@@H](Cc2ccccc2)N1Cc1cccc(-c2cc[nH]n2)c1					IC90 (HIV-1 (RF) in MT-2 cells; Table 2d, HIV RNA assay, tested form: HCl): +++ (+++=<10 μg/mL); pKi ([1]; read-out: HPLC K1, Table 2d, HIV protease inhibition, HPLC method, tested form: HCl): > 8.00
O=C1N(Cc2ccc(O)cc2)[C@H](Cc2ccccc2)[C@H](O)[C@@H](O)[C@@H](Cc2ccccc2)N1Cc1ccc(O)c(CO)c1	++ (++=10 to 100 μg/mL)	> 8.00			
O=C1N(Cc2ccc(CF)cc2)[C@H](Cc2ccccc2)[C@H](O)[C@@H](O)[C@@H](Cc2ccccc2)N1Cc1ccc(CF)cc1					IC90 (HIV-1 (RF) in MT-2 cells; Table 2i): +++ (+++=<10 μg/mL); pKi ([1]; read-out: HPLC Ki, Table 2i): > 8.00
NC(=NO)c1cc(CN2C(=S)N(Cc3ccc(F)c(C(N)=NO)c3)[C@H](Cc3ccccc3)[C@H](O)[C@@H](O)[C@H]2Cc2ccccc2)ccc1F					IC90 (HIV-1 (RF) in MT-2 cells; Table 2q): +++ (+++=<10 μg/mL); pKi ([1]; read-out: HPLC Ki, Table 2q): > 8.00
O=C1N(Cc2cccc(CO)c2)[C@H](Cc2ccccc2)C[C@@H](O)[C@@H](Cc2ccccc2)N1Cc1cccc(CO)c1					Mass Spec M + H (class symbols printed in this column) (HIV-1 (RF) in MT-2 cells; Table 1d, lower part): +++ (+++=<10 μg/mL); pKi ([1]; read-out: HPLC Ki, Table 1d, lower part): > 8.00
O=C1N(Cc2cccc(-c3cc[nH]n3)c2)[C@H](Cc2ccccc2)[C@H](O)[C@@H](O)[C@@H](Cc2ccccc2)N1Cc1ccc2[nH]nnc2c1			+++ (+++=<10 μg/mL)	> 8.00	
O=C(O)c1cccc(CN2C(=O)N[C@H](Cc3ccccc3)[C@H](O)[C@@H](O)[C@H]2Cc2ccccc2)c1	+ (+=>100 μg/mL)	> 8.00			
C=C(CCl)CN1C(=O)N(CC(=C)CCl)[C@H](Cc2ccccc2)[C@H](O)[C@@H](O)[C@H]1Cc1ccccc1			++ (++=10 to 100 μg/mL)	6.00 to 8.00	
O=C(NC12CC3CC(CC(C3)C1)C2)Oc1cccc(CN2C(=O)N(Cc3cccc(O)c3)[C@H](Cc3ccccc3)[C@H](O)[C@@H](O)[C@H]2Cc2ccccc2)c1	+++ (+++=<10 μg/mL)	6.00 to 8.00			
O=C(NCCN1CCCC1)c1cccc(CN2C(=O)N(CC3CC3)[C@H](Cc3ccccc3)[C@H](O)[C@@H](O)[C@H]2Cc2ccccc2)c1			+++ (+++=<10 μg/mL)	> 8.00	
O=S1(=O)N(CCCCCO)[C@H](Cc2ccccc2)[C@H](O)[C@@H](O)[C@@H](Cc2ccccc2)N1CCCCCO					IC90 (HIV-1 (RF) in MT-2 cells; Table 2m): +++ (+++=<10 μg/mL); pKi ([1]; read-out: HPLC Ki, Table 2m): > 8.00
CN(C)CC(=O)Nc1cccc(CN2C(=O)N(Cc3ccc(CO)cc3)[C@H](Cc3ccccc3)[C@H](O)[C@@H](O)[C@H]2Cc2ccccc2)c1					IC90 (HIV-1 (RF) in MT-2 cells; Table 2d, class symbols, tested form: HCl): +++ (+++=<10 μg/mL); pKi ([1]; read-out: HPLC K1, Table 2d, class symbols, tested form: HCl): > 8.00
OCc1ccc(CN2C(=S)N(Cc3ccc(CO)cc3)[C@H](Cc3ccccc3)[C@H](O)[C@@H](O)[C@H]2Cc2ccccc2)cc1					IC90 (HIV-1 (RF) in MT-2 cells; Table 2q): +++ (+++=<10 μg/mL); pKi ([1]; read-out: HPLC Ki, Table 2q): > 8.00
O=C1N(Cc2cccc(B(O)O)c2)[C@H](Cc2ccccc2)[C@H](O)[C@@H](O)[C@@H](Cc2ccccc2)N1Cc1cccc(B(O)O)c1	+++ (+++=<10 μg/mL)	> 8.00			
